Measured values from several laboratories, pooled; numbers as filed in NIAID ChemDB.

Shared fields: growth or infection tests; species: HIV-1; read-out: EC50

ECn is the concentration giving n% inhibition of infection, replication or growth.

SMILES	mutations	cell line	strain	value
Nc1nc(NC2CC2)c2ncn([C@H]3CC[C@@H](CO)O3)c2n1	-	MT-2	NL4-3	13.06 µM
Cc1cn([C@H]2C[C@H](N=[N+]=[N-])[C@@H](COP(=O)(O)OP(=O)(O)OP(=O)(O)O)O2)c(=O)[nH]c1=O	-	CEM	LAI	0.1 µM
CC(C)(C)[C@H](NC(=O)OCCc1nc2ccccc2[nH]1)C(=O)N[C@@H](Cc1ccccc1)[C@@H](O)[C@H](CO)[C@H](Cc1ccccc1)NC(=O)[C@@H](NC(=O)OCCc1nc2ccccc2[nH]1)C(C)(C)C	-	MT-4	IIIB	0.52 µM
Oc1cc(O)c2c(c1)O[C@@H](c1ccc(O)c(O)c1)[C@@H](O)C2	-	C8166	-	4 µg/mL
CC(C)(C)[C@H](NC(=O)OCCc1nc2ccccc2[nH]1)C(=O)N[C@@H](Cc1ccccc1)[C@H](O)[C@@H](CO)[C@H](Cc1ccccc1)NC(=O)[C@@H](NC(=O)OCCc1nc2ccccc2[nH]1)C(C)(C)C	-	MT-4	IIIB	>10 µM
Cc1ccnc2c1NC(=O)c1cccnc1N2C1CC1	RT-L74V A98G	MT-4	-	<3 µM
CC(C)(C)[C@H](NC(=O)c1nc2ccccc2[nH]1)C(=O)N[C@@H](Cc1ccccc1)[C@H](O)[C@@H](CO)[C@H](Cc1ccccc1)NC(=O)[C@@H](NC(=O)c1nc2ccccc2[nH]1)C(C)(C)C	-	MT-4	IIIB	>10 µM
Cc1cccc(C)c1C(=O)N1CCC(N2CCN([C@@H](C)c3ccc(Cc4ccc5c(c4)OCO5)cc3)[C@@H](C)C2)CC1	-	PBMC	US-1	0.008 µM
COc1cc(CCOC(=O)CCC(=O)CO)cc(O)c1OC	-	-	-	2.95 µg/mL
CC(=O)S[C@@H]1CC2=CC(=O)CC[C@]2(C)[C@H]2CC[C@H]3[C@@H](CC[C@@]34CCC(=O)O4)[C@H]12	-	MT-4	LAV	>100 µg/mL
C/C(CO)=C(/Br)Cn1ccc(=O)[nH]c1=O	-	MT-4	-	3.36 µg/mL
Cc1cn([C@H]2C[C@H](N=[N+]=[N-])[C@@H](CO)O2)c(=O)[nH]c1=O	-	-	IIIB	0.0001 µg/mL
Nc1nc2c(ncn2[C@@H]2CC[C@H](CO)O2)c(=O)[nH]1	-	PBMC	-	>100 µM
Nc1nc(Cl)nc2c1ncn2[C@@H]1O[C@H](CO)[C@H]1O	-	MT-4	IIIB	0.44 µg/mL
Cc1cn([C@H]2C[C@H](N=[N+]=[N-])[C@@H](CO)O2)c(=O)[nH]c1=O	NNRTI-resistant (RT K103N/Y181C)	MT-4	-	0.002 µM
O=C(CO)CCC(=O)OCCc1ccc2c(c1)OCO2	-	-	-	6.71 µg/mL
NS(=O)(=O)c1cc(C(=O)O)c(NCc2ccco2)cc1Cl	-	MT-4	LAV	>100 µg/mL
Nc1nc(=O)n([C@H]2CC[C@@H](CO)S2)cc1F	-	HeLa + HELA CD4+	IIIB	>50 µM
CCC[C@@H](c1ccc(C(F)(F)F)cc1)N1CCN(C2(C)CCN(C(=O)c3c(C)ncnc3C)CC2)C[C@@H]1C	-	PBMC	JRFL Clinical isolates	<0.00001 µM
O=c1c(O[C@@H]2O[C@H](CO)[C@@H](O)[C@H](O)[C@H]2O)c(-c2ccc(O)cc2)oc2cc(O)cc(O)c12	-	C8166	-	10 µg/mL
CC(C)[C@H](NC(=O)OCc1ccccc1)C(=O)N[C@@H](Cc1ccccc1)[C@H](O)[C@@H](CO)[C@H](Cc1ccccc1)NC(=O)[C@H](CC(C)(C)C)NC(=O)OCc1ccccc1	-	MT-4	IIIB	>10 µM
Cc1cc(C=O)cc2c1OP(=O)(OC[C@@H]1C=C[C@H](n3cc(C)c(=O)[nH]c3=O)O1)OC2	-	CEM	-	0.26 µM
Nc1nc(N2CCCC2)c2ncn([C@H]3C=C[C@@H](CO)O3)c2n1	-	MT-2	NL4-3	11.07 µM
CC(C)[C@H](NC(=O)OCc1ccccc1)C(=O)N[C@@H](Cc1ccccc1)[C@@H](O)[C@H](CO)[C@H](Cc1ccccc1)NC(=O)[C@H](CC(C)(C)C)NC(=O)OCc1ccccc1	-	MT-4	IIIB	2.5 µM
CC(C)CN(C[C@@H](O)[C@H](Cc1ccccc1)NC(=O)O[C@H]1CCOC1)S(=O)(=O)c1ccc(N)cc1	-	MT-4	HXB2 WT	0.0325 µM
CC(C)NCC(O)COc1cccc2[nH]ccc12	-	MT-4	LAV	>100 µg/mL
Nc1nc(=O)n([C@@H]2CC[C@H](CO)S2)cc1F	-	HeLa + HELA CD4+	IIIB	>50 µM
C=O.Cc1cn(C2CC(N(N)N)C(OP(N)(=O)OCC3OC(n4ccc(N)nc4=O)CS3)O2)c(=O)[nH]c1=O	-	MT-4	-	0.003 µM
OCCc1ccc(O[C@@H]2O[C@H](CO)[C@@H](O)[C@H](O)[C@H]2O)c(O)c1	-	-	-	36.8 µg/mL
CN1C(=O)CN=C(c2ccccc2)c2cc(Cl)ccc21	-	U1	SF162	12 µM
COC(=O)[C@H]1[C@H]2C[C@@H]3c4[nH]c5cc(OC)ccc5c4CCN3C[C@H]2C[C@@H](OC(=O)/C=C/c2cc(OC)c(OC)c(OC)c2)[C@@H]1OC	-	MT-4	LAV	>100 µg/mL
C=CCSS/C=C/CS(=O)CC=C	-	CEM13 + CEM	-	5 µM
O=c1cc(-c2ccccc2)oc2cc(O)cc(O)c12	-	C8166	-	20 µg/mL
NCCCCN(Cc1nc2ccccc2[nH]1)C1CCCc2cccnc21	-	MT-4	NL4-3	0.0096 µM
Nc1nc(=O)n([C@@H]2C=C[C@H](CO)S2)cc1F	-	HeLa + HELA CD4+	IIIB	0.4 µM
Cc1cn([C@H]2C[C@H](N=[N+]=[N-])[C@@H](CO)O2)c(=O)[nH]c1=O	-	MT-4	HXB2 WT	0.0147 µM
CC(C)(C)NC(=O)[C@H]1N(C(=O)[C@@H](O)[C@H](Cc2ccccc2)NC(=O)CC(C)(C)C(=O)O)CSC1(C)C	-	MT-4	-	52 µM
C/C(CO)=C(/Br)Cn1cnc2c(N)ncnc21	-	MT-4	-	>100 µg/mL
CCOC(CN1CCN(CC(C)C(=O)c2ccccc2)CC1)c1ccccc1	-	MT-4	LAV	>1 µg/mL
Nc1nc2c(ncn2[C@H]2CC[C@@H](CO)O2)c(=O)[nH]1	-	MT-2	NL4-3	7.29 µM
CC(C(=O)O)C(C)C(=O)N[C@@H](Cc1ccccc1)[C@H](O)C(=O)N1CSC(C)(C)[C@H]1C(=O)NC(C)(C)C	-	MT-4	-	225 µM
Nc1nc2c(ncn2[C@H]2C[C@]23C[C@@H]3CO)c(=O)[nH]1	-	CEM + CEM-SS	RF	>100 µM
CC(C)[C@H](NC(=O)OCc1ccccc1)C(=O)N[C@@H](Cc1ccccc1)[C@H](O)[C@@H](CO)[C@H](Cc1ccccc1)NC(=O)OC(C)(C)C	-	MT-4	IIIB	>10 µM
Nc1nc(=O)n([C@H]2C=C[C@@H](CO)S2)cc1F	-	HeLa + HELA CD4+	IIIB	<50 µM
CCN(C(=O)OCc1ccc([N+](=O)[O-])cc1)C1CCN(CC[C@](C)(CN(C)S(=O)(=O)c2ccccc2)c2ccccc2)CC1	-	MAGI + MAGI-CCR5	YU-2 (M-tropic)	<0.05 µM
Cc1cn([C@H]2C=C[C@@H](CO)O2)c(=O)[nH]c1=O	-	MT-2	-	1.3 µM
CC[C@@H](c1ccc(C(F)(F)F)cc1)N1CCN(C2(C)CCN(C(=O)c3c(C)ncnc3C)CC2)C[C@@H]1C	-	PBMC	301657 Clinical isolates	<0.016 µM
Cc1nc(COc2ccc(C[C@H](NC(=O)O[C@H]3CO[C@H]4OCC[C@H]43)[C@H](O)CN(CC(C)C)S(=O)(=O)c3ccc4c(c3)OCO4)cc2)cs1	-	MT-4	HXB2 WT	<0.00085 µM
Cc1cn([C@H]2CO[C@](CO)(CN=[N+]=[N-])C2)c(=O)[nH]c1=O	-	MT-4	IIIB	>100 µM
CCN1CCCC1CNC(=O)c1cc(S(N)(=O)=O)ccc1OC	-	MT-4	LAV	>100 µg/mL
CC1(C)Oc2ccc3ccc(=O)oc3c2[C@@H](OC(=O)C23CCC(C)(C(=O)O2)C3(C)C)[C@H]1OC(=O)C12CCC(C)(C(=O)O1)C2(C)C	-	H9	-	0.0004 µM
COC(=O)[C@H](C)OP(=O)(OC[C@@H]1C=C[C@H](n2cc(C)c(=O)[nH]c2=O)O1)Oc1ccccc1	-	CEM	-	40 µM
Nc1ncnc2c1ncn2[C@@H]1CC[C@H](CO)O1	-	PBMC	-	8.2 µM
COC(=O)[C@H](C)NP(=O)(OC[C@@H]1C[C@]12C[C@@H]2n1cnc2c(N)ncnc21)Oc1ccccc1	-	CEM + CEM-SS	-	3.5 µM
c1cc(CN2CCCNCCNCCCNCC2)ccc1CN1CCCNCCNCCCNCC1	-	PBMC	14a-Pre	0.23 µM
Cc1cn([C@@H]2C=CC3(CO)C[C@@H]23)c(=O)[nH]c1=O	-	MT-4	IIIB	6.76 µg/mL
O=C(O[C@@H]1Cc2c(O)cc(O)cc2O[C@@H]1c1ccc(O)c(O)c1)c1cc(O)c(O)c(O)c1	-	C8166	-	1 µg/mL
Nc1nc(NC2CC2)c2ncn([C@H]3C=C[C@@H](CO)O3)c2n1	-	MT-2	NL4-3	11.06 µM
Nc1ncnc2c1ncn2[C@@H]1C=C[C@H](CO)O1	-	CEM	-	0.54 µM
CC1CNC(=O)c2ccccc2SSc2ccccc2C(=O)N1	-	CEM	IIIB	1.8–6.5 µg/mL
COc1cc(/C=C/C(=O)O[C@H]2[C@H](O)[C@@H](OC3OCC(O)(CO)C3O)[C@H](OCCc3ccc(O)cc3)O[C@@H]2CO)ccc1O	-	-	-	3.79 µg/mL
Nc1nc(F)nc2c1ncn2[C@@H]1O[C@H](CO)[C@H]1O	-	MT-4	IIIB	0.016 µg/mL
Nc1nc2c(ncn2[C@H]2C[C@@]23C[C@@H]3CO)c(=O)[nH]1	-	CEM + CEM-SS	RF	>100 µM
C/C(CO)=C(/Br)Cn1ccc(N)nc1=O	-	MT-4	-	>100 µg/mL
Oc1cc(O)c2c(c1)O[C@H](c1cc(O)c(O)c(O)c1)[C@@H](O)C2	-	C8166	-	5 µg/mL
CCCCC#CCSc1ccccc1OC(C)=O	RT-M184V	MT-2	184V lamivudine-resistant (RT M184V)	5 µM
Nc1nc2c(ncn2[C@H]2C[C@@]23C[C@H]3CO)c(=O)[nH]1	-	CEM + CEM-SS	-	>100 µM
O=C(OC[C@H]1OC(=O)c2ccccc21)c1ccccc1	-	CEM	-	>10 µM
Cc1cn([C@H]2C[C@H](N=[N+]=[N-])[C@@H](CO)O2)c(=O)[nH]c1=O	-	PBL	JR-CSF	<1 µM
CN(Cc1cc(Br)cc(Br)c1N)C1CCCCC1	-	MT-4	LAV	>100 µg/mL

9 of the rows above, restated:

SMILES	mutations	cell line	strain	value
Cc1cn([C@H]2C[C@H](N=[N+]=[N-])[C@@H](CO)O2)c(=O)[nH]c1=O	-	-	IIIB	0.0001 µg/mL
COc1cc(/C=C/C(=O)O[C@H]2[C@H](O)[C@@H](OC3OCC(O)(CO)C3O)[C@H](OCCc3ccc(O)cc3)O[C@@H]2CO)ccc1O	-	-	-	3.79 µg/mL
O=C(CO)CCC(=O)OCCc1ccc2c(c1)OCO2	-	-	-	6.71 µg/mL
O=c1cc(-c2ccccc2)oc2cc(O)cc(O)c12	-	C8166	-	20 µg/mL
Cc1cn([C@H]2C[C@H](N=[N+]=[N-])[C@@H](COP(=O)(O)OP(=O)(O)OP(=O)(O)O)O2)c(=O)[nH]c1=O	-	CEM	LAI	0.1 µM
Nc1ncnc2c1ncn2[C@@H]1C=C[C@H](CO)O1	-	CEM	-	0.54 µM
C/C(CO)=C(/Br)Cn1ccc(=O)[nH]c1=O	-	MT-4	-	3.36 µg/mL
Cc1cn([C@H]2C=C[C@@H](CO)O2)c(=O)[nH]c1=O	-	MT-2	-	1.3 µM
CC(C)CN(C[C@@H](O)[C@H](Cc1ccccc1)NC(=O)O[C@H]1CCOC1)S(=O)(=O)c1ccc(N)cc1	-	MT-4	HXB2 WT	0.0325 µM

An empty or dashed field is not shown. Conditions beyond the fields shown may differ between rows. a–b is a range or a potency band.